According to patent US20240425848:

Target: T1, Tn5 transposase (UniProt Q46731)
T1 sequence: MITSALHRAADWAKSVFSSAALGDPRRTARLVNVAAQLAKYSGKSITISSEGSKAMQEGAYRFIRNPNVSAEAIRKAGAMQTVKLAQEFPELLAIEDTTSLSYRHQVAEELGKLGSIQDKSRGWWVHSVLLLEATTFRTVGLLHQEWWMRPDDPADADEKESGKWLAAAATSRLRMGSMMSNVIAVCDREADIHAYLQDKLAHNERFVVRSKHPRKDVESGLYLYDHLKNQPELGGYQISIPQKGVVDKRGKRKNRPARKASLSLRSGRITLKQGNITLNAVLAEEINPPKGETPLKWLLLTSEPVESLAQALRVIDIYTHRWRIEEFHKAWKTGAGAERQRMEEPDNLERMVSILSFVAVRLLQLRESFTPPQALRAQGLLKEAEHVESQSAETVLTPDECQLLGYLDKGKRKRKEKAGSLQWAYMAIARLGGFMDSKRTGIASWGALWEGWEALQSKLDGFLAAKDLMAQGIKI
Assay: activity assay
Details: purified recombinant protein, protein details: produced from pTXB1-Tn5 (Addgene 60240)

[1] = barcoded transposon used in GET-seq tagmentation, 37 C, set of four oligos

Sequence	activity on this sequence [1]	activity on this sequence (tagmentation of Caki-1 gDNA, TAPS-PEG8000, 55 C 7 min, in-house Tn5)
TCGTCGGCAGCGTCTCCGATCTTCCTGAGCAGATGTGTATAAGAGACAG [Tn5ME-A.2]	active	–
TCGTCGGCAGCGTCTCCGATCTTCATGAGCAGATGTGTATAAGAGACAG [Tn5ME-A.7]	active	–
AGATGTGTATAAGAGACAG (double strand) [Tn5 mosaic end (ME)]	–	active
TCGTCGGCAGCGTCTCCGATCTCCTGAGATAGATGTGTATAAGAGACAG [Tn5ME-A.8]	active	–
TCGTCGGCAGCGTCTCCGATCTCGTACTAGAGATGTGTATAAGAGACAG [Tn5ME-A.1]	active	–

Tags and fusion partners may be left off the protein sequences shown. For at least one entry, the source does not settle the construct or the ends of the probe.
